Key:
[1] = target: T1, mutant N_(128-138) peptide 3 (KAGIIAAATEG) (SARS-CoV-2); test: ITC
T1 peptide: KAGIIAAATEG

[2] = target: T2, mutant N_(128-138) peptide 2 (KDGIIAAATEG) (SARS-CoV-2); test: ITC
T2 peptide: KDGIIAAATEG

B1: NTF2-like domain of Ras GTPase-activating protein SH3-domain-binding protein 1 (G3BP1_(NTF-2)) (domain or fragment)
chain: MVMEKPSPLLVGREFVRQYYTLLNQAPDMLHRFYGKNSSYVHGGLDSNGKPADAVYGQKEIHRKVMSQNFTNCHTKIRHVDAHATLNDGVVVQVMGLLSNNNQALRRFMQTFVLAPEGSVANKFYVHNDIFRYQDEVFG
fold reduction against native N_(128-138) peptide 1 [1]: 60 fold
fold reduction against native N_(128-138) peptide 1 [2]: 16 fold

— publication doi:10.1101/2024.10.27.620470 (bioRxiv, 2024)
